Measured values from several laboratories, pooled; numbers as filed in NIAID ChemDB.

Shared fields: growth or infection tests; organism: HIV-1

ECn: concentration that inhibits the pathogen or its effect by n%. Conditions beyond the fields shown may differ between rows. Blank or dashed fields: not listed here. a–b is a range or a potency band.

smiles | strain or isolate | measure | method | cells | setting | changes | value
COC(=O)c1cc2c(OC)cc(N)cc2o1 |  | EC50 | p24 |  |  |  | 2.06 µg/mL
O=C(CCN1C(=O)/C(=C/c2cccs2)SC1=S)Nc1ccc(O)c(C(=O)O)c1 |  | EC50 | cytopathic effect / XTT | CEM + CEM-SS |  |  | 21 µM
CC(C)(C)C(=O)OCOP(=O)(CC[C@H]1O[C@@H](n2cnc3c(N)nc(N)nc32)[C@](C)(F)[C@@H]1O)OCOC(=O)C(C)(C)C | LAI | EC90 | PCR | PBMC |  |  | >100 µM
CC(C)C1=C2[C@H]3CC[C@@H]4[C@@]5(C)CC[C@H](OC(=O)[C@H]6C[C@@H](C(=O)O)C6(C)C)C(C)(C)[C@@H]5CC[C@@]4(C)[C@]3(C)CC[C@@]2([C@@H](O)CNC(=O)c2cccc(Cl)c2)CC1=O | 92HT599 | EC50 | p24 / ELISA | MT-2 |  |  | <1 µM
Cc1ccc(NC(=O)NCCSCc2ccc(CNC(C)C)o2)cc1Cl |  | EC50 |  | U1 |  |  | <75 µM
CC(C)CN(C[C@@H](O)[C@H](Cc1ccccc1)NC(=O)O[C@H]1C2COC3OCC1C3C2)S(=O)(=O)c1ccc2nc(NC3CC3)sc2c1 | NL4-3 | EC50 | p24 | MT-4 |  |  | 0.0003 µM
O=C(NNc1ccn([C@H]2CC[C@@H](CO)O2)c(=O)n1)c1ccccc1O |  | EC50 |  | CEM + CEM-SS |  |  | >100 µM
O=C(CCN1C(=O)/C(=C/c2ccc3c(c2)OCO3)SC1=S)Nc1ccc(C(=O)O)c(O)c1 |  | EC50 | cytopathic effect / XTT | CEM + CEM-SS |  |  | >200 µM
Cc1ccc(OCCN(C)c2ccc(-c3cnc(C)c([C@H](OC(C)(C)C)C(=O)O)c3N3CCC(C)(C)CC3)cn2)cc1F | NL4-3 | EC50 | luminescence | MT-2 |  |  | 0.005 µM
C=CCC1CCn2c(=O)[nH]c3cccc(c32)C1 |  | EC50 |  |  |  |  | 1–2 µM
Cc1cccc(Cl)c1OCCOc1ccc(-c2cnc(C)c([C@H](OC(C)(C)C)C(=O)O)c2N2CCC(C)(C)CC2)nc1 | NL4-3 | EC50 | luminescence | MT-2 |  |  | 0.0011 µM
COc1ccc(-c2nnc(S[C@@H]3O[C@H](COC(C)=O)[C@@H](OC(C)=O)[C@H](OC(C)=O)[C@H]3OC(C)=O)n2N)cc1 | IIIB | EC50 |  | MT-4 |  |  | >100 µM
COC(=O)CCCCNP(=O)(OC[C@@H]1C=C[C@H](n2cc(C)c(=O)[nH]c2=O)O1)Oc1ccccc1 | IIIB | EC50 | cytopathic effect / trypan blue | CEM + CEM/0 |  |  | >250 µM
CCCCNc1cc(OC)c2cc(C(=O)OC)[nH]c2c1 |  | EC50 | p24 |  |  |  | 3.46 µg/mL
C=C1CN(S(=O)(=O)c2ccc(C)cc2)CCCN(Cc2ccccc2)CCCN(S(=O)(=O)c2ccc(C)cc2)C1 | A17 | EC50 |  | MT-4 |  | Pyridinone-resistant (RT K103N Y181C) | 2 µM
Cc1ncc(-c2ccc(OCC3CCCC3)cn2)c(N2CCC(C)(C)CC2)c1[C@H](OC(C)(C)C)C(=O)O | NL4-3 | EC50 | luminescence | MT-2 |  |  | 0.0016 µM
COC(=O)[C@H](C)NP(=O)(OC[C@@H]1C=C[C@H](n2cc(C)c(=O)[nH]c2=O)O1)Oc1ccccc1 | IIIB | EC50 | cytopathic effect / trypan blue | CEM + CEM/0 |  |  | 0.085 µM
CC(C)C1=C2[C@H]3CC[C@@H]4[C@@]5(C)CC[C@H](OC(=O)[C@H]6C[C@@H](C(=O)O)C6(C)C)C(C)(C)[C@@H]5CC[C@@]4(C)[C@]3(C)CC[C@@]2(CC(=O)NCC(F)(CN)NC(=O)c2ccc(Cl)cc2)CC1=O | 92HT599 | EC50 | p24 / ELISA | MT-2 |  |  | <1 µM
Nc1nc(Cl)c2ncn(CCCCCB(O)O)c2n1 | BaL | EC50 | p24 | PBMC |  |  | ~0.3 µM
CCC[C@@]1(CCc2ccccc2)CC(O)=C([C@H](CC)c2cccc(NS(=O)(=O)c3ccc(C(F)(F)F)cn3)c2)C(=O)O1 | IIIB | EC50 |  | MT-4 |  |  | 0.7 µM
CC[C@H](C)[C@H]([NH3+])C(=O)NNc1ccn([C@H]2CC[C@@H](CO)O2)c(=O)n1 |  | EC50 |  | CEM + CEM-SS |  |  | >100 µM
CC(C)C1=C2[C@H]3CC[C@@H]4[C@@]5(C)CC[C@H](OC(=O)[C@H]6C[C@@H](C(=O)O)C6(C)C)C(C)(C)[C@@H]5CC[C@@]4(C)[C@]3(C)CC[C@@]2(CCN(CCN(C)C)C(=O)c2nccs2)CC1=O | 92HT599 | EC50 | p24 / ELISA | MT-2 |  |  | <1 µM
CC1=C(/C=C/C(C)=C/C=C/C(C)=C/C(=O)O)C(C)(C)CCC1 | IIIB | EC50 | MTT / p24 | ACH-2 (chronically infected) + ACH2 | 10 d, chronic infection |  | >0.1 µM
CCCCC1(CCc2cccc(NS(=O)(=O)c3ccc(C#N)cn3)c2)COC(=O)C(C(CC)c2cccc(NS(=O)(=O)c3ccc(C#N)cn3)c2)=C1O | IIIB | EC50 |  | MT-4 |  |  | 11.6 µM
COc1cccc2c1c(/C(O)=C1\COC(=O)C1=O)cn2Cc1ccc(F)cc1 | IIIB | EC50 | MTT | MT-4 |  |  | 0.55 µM
Cc1ncc(-c2ccc(NCCOc3ccc(F)cc3Cl)cn2)c(N2CCC(C)(C)CC2)c1[C@H](OC(C)(C)C)C(=O)O | NL4-3 | EC50 | luminescence | MT-2 |  |  | 0.002 µM
COC(=O)C(=O)N1CCC[C@H]1C(=O)N[C@H](Cc1ccccc1)C(=O)N[C@H](C)C(=O)Nc1ccc(OCC(=O)N[C@@H](CC(N)=O)C(=O)N[C@@H](Cc2ccccc2)[C@H](O)C(=O)N2CCC[C@H]2C(=O)NC(C)(C)C)cc1 |  | EC50 | antigen | MT-4 |  |  | >100 µg/mL
CC(C)C1=C2[C@H]3CC[C@@H]4[C@@]5(C)CC[C@H](OC(=O)[C@H]6C[C@@H](C(=O)O)C6(C)C)C(C)(C)[C@@H]5CC[C@@]4(C)[C@]3(C)CC[C@@]2([C@@H](O)CNC(=O)CN2CCS(=O)(=O)CC2)CC1=O | 92HT599 | EC50 | p24 / ELISA | MT-2 |  |  | <1 µM
CCCCC1(CCc2cccc(NS(=O)(=O)c3ccccn3)c2)COC(=O)C(C(CC)c2cccc(NS(=O)(=O)c3ccccn3)c2)=C1O | IIIB | EC50 |  | MT-4 |  |  | 3.9 µM
CC(C)C1=C2[C@H]3CC[C@@H]4[C@@]5(C)CC[C@H](OC(=O)[C@@H]6C[C@H](C(=O)O)C6(C)C)C(C)(C)[C@@H]5CC[C@@]4(C)[C@]3(C)CC[C@@]2(CCNC(C)(C)c2ccccc2)CC1=O | 92HT599 | EC50 | p24 / ELISA | MT-2 |  |  | <1 µM
Nc1ccn([C@H]2CC[C@@H](CO)O2)c(=O)n1 | IIIB | EC50 | MTT | MT-4 |  |  | 0.697 µg/mL
Cc1ncc(-c2cnc(OCCOC(C)(C)C)c(F)c2)c(N2CCC(C)(C)CC2)c1[C@H](OC(C)(C)C)C(=O)O | NL4-3 | EC50 | luminescence | MT-2 |  |  | 0.0019 µM
CC(C)(CN)NC(=O)[C@@H]1CCCN1C(=O)[C@@H](O)[C@H](Cc1ccccc1)NC(=O)[C@H](CC(N)=O)NC(=O)OCc1ccccc1 |  | EC50 |  |  |  |  | >100 µg/mL
COc1cc(N)cc2[nH]c(C(C)=O)cc12 |  | EC50 | p24 |  |  |  | 1.03 µg/mL
CCCCCCCCCCc1nccnc1OCCCCO | IIIB | EC50 |  | MT-4 |  |  | >100 µM
COC(=O)C(=O)N1CCC[C@H]1C(=O)N[C@@H](Cc1ccccc1)C(=O)N[C@@H](CC(N)=O)C(=O)N[C@@H](Cc1ccccc1)[C@H](O)C(=O)N1CCC[C@H]1C(=O)NC(C)(C)C |  | EC50 | antigen | MT-4 |  |  | >100 µg/mL
CC(C)(C)C(=O)OCOP(=O)(CC[C@H]1O[C@@H](n2ccc(N)nc2=O)[C@](C)(F)[C@@H]1O)OCOC(=O)C(C)(C)C | LAI | EC90 | PCR | PBMC |  |  | >100 µM
COC(=O)CCCCCCNP(=O)(OC[C@@H]1C=C[C@H](n2cc(C)c(=O)[nH]c2=O)O1)Oc1ccccc1 | IIIB | EC50 | cytopathic effect / trypan blue | CEM + CEM/0 |  |  | 50 µM
CC(C)C1=C2[C@H]3CC[C@@H]4[C@@]5(C)CC[C@H](OC(=O)[C@H]6C[C@@H](C(=O)O)C6(C)C)C(C)(C)[C@@H]5CC[C@@]4(C)[C@]3(C)CC[C@@]2(CC(=O)NCc2ccc(O[C@H]3CCOC3)cc2)CC1=O | 92HT599 | EC50 | p24 / ELISA | MT-2 |  |  | <1 µM
Nn1c(SC(c2ccccc2)c2ccccc2)nnc1-c1ccc(Cl)cc1 | NNRTI-resistant N119 | EC50 |  | MT-4 |  | RT-Y181C | >100 µM
CC(C)(C)NC(=O)[C@@H]1CCCN1C(=O)[C@@H](O)[C@H](Cc1ccccc1)NC(=O)[C@H](CC(N)=O)NC(=O)OCc1ccccc1 |  | EC50 | antigen | MT-4 |  |  | <1 µg/mL
Cc1ncc(-c2cnc(OCCC3CC3)c(F)c2)c(N2CCC(C)(C)CC2)c1[C@H](OC(C)(C)C)C(=O)O | NL4-3 | EC50 | luminescence | MT-2 |  |  | 0.0045 µM
COc1ccc(-c2nnc(SN3CCOCC3)n2N)cc1 | NNRTI-resistant N119 | EC50 |  | MT-4 |  | RT-Y181C | >100 µM
CC(C)(C)NC(=O)[C@@H]1CCCN1C(=O)[C@@H](O)[C@H](Cc1ccccc1)NC(=O)[C@H](CC(N)=O)NC(=O)COc1ccccc1 |  | EC50 | antigen | MT-4 |  |  | 4.5–6 µg/mL
COC(=O)CCNP(=O)(OC[C@@H]1C=C[C@H](n2cc(C)c(=O)[nH]c2=O)O1)Oc1ccccc1 | IIIB | EC50 | cytopathic effect / trypan blue | CEM + CEM/0 |  |  | ≥250 µM
C=CCN(C(=O)OCc1ccc([N+](=O)[O-])cc1)C1CCN(C[C@H]2CN(C(=O)C3CCCC3)C[C@]2(O)c2ccccc2)CC1 | JRFL R5 CLADE B | EC50 | p24 | PBMC |  |  | 0.0306 µM
CCCCCCCCCCc1nccn(CCCCO)c1=O | IIIB | EC50 |  | MT-4 |  |  | >100 µM
COC(=O)C(=O)N1CCC[C@H]1C(=O)N[C@@H](Cc1ccccc1)C(=O)Nc1ccc(OCC(=O)N[C@@H](CC(N)=O)C(=O)N[C@@H](Cc2ccccc2)[C@H](O)C(=O)N2CCC[C@H]2C(=O)NC(C)(C)C)cc1 |  | EC50 |  |  |  |  | >100 µg/mL
Clc1ccc(-c2nnc3ssc4nnc(-c5ccc(Cl)cc5)n4n23)cc1 | NNRTI-resistant N119 | EC50 |  | MT-4 |  | RT-Y181C | >100 µM

A second listing of 3 rows from above:

smiles	strain or isolate	measure	method	cells	setting	changes	value
O=C(CCN1C(=O)/C(=C/c2ccc3c(c2)OCO3)SC1=S)Nc1ccc(C(=O)O)c(O)c1		EC50	cytopathic effect / XTT	CEM + CEM-SS			>200 µM
CCCCC1(CCc2cccc(NS(=O)(=O)c3ccccn3)c2)COC(=O)C(C(CC)c2cccc(NS(=O)(=O)c3ccccn3)c2)=C1O	IIIB	EC50		MT-4			3.9 µM
O=C(NNc1ccn([C@H]2CC[C@@H](CO)O2)c(=O)n1)c1ccccc1O		EC50		CEM + CEM-SS			>100 µM